Laboratory results: article doi:10.64898/2025.12.16.694593 (bioRxiv, 2025)

Assays:
Assay in all cases: […]
Mtb LigD D522R = Mtb LigD D522R (Mycobacterium tuberculosis, UniProt P9WNV3 1-759, D522R)
Mtb LigD L580E = Mtb LigD L580E (Mycobacterium tuberculosis, UniProt P9WNV3 1-759, L580E)
Mtb LigD R198E = Mtb LigD R198E (Mycobacterium tuberculosis, UniProt P9WNV3 1-759, R198E)
Mtb LigD V194D = Mtb LigD V194D (Mycobacterium tuberculosis, UniProt P9WNV3 1-759, V194D)
Mtb LigD D162R = Mtb LigD D162R (Mycobacterium tuberculosis, UniProt P9WNV3 1-759, D162R)
Mtb LigD K579E = Mtb LigD K579E (Mycobacterium tuberculosis, UniProt P9WNV3 1-759, K579E)

Measured: binding result

B1: His-SNAP-Mtb Ku (natural protein)
chain: MRAIWTGSIAFGLVNVPVKVYSATADHDIRFHQVHAKDNGRIRYKRVCEACGEVVDYRDLARAYESGDGQMVAITDDDIASLPEERSREIEVLEFVPAADVDPMMFDRSYFLEPDSKSSKSYVLLAKTLAETDRMAIVHFTLRNKTRLAALRVKDFGKREVMMVHTLLWPDEIRDPDFPVLDQKVEIKPAELKMAGQVVDSMADDFNPDRYHDTYQEQLQELIDTKLEGGQAFTAEDQPRLLDEPEDVSDLLAKLEASVKARSKANSNVPTPP
binds: Mtb LigD D522R | Mtb LigD L580E | Mtb LigD R198E | Mtb LigD V194D | Mtb LigD D162R | Mtb LigD K579E
